From US20130253179A1, “Functionalization Processes and Reactants Used in Such Processes Using an Isatoic Anhydride or a Derivative Thereof, Biological Molecules Thus Treated and Kits” (priority 2010, published 2013)

Test system: HIV WT transcript with 1083 nucleotides
Assay: Functionalisation, capture, cleaving and elution of HIV WT transcripts (BioAnalyzer)

Cn1c(=O)oc(=O)c2cc(NC(=O)CCSSCCNC(=O)CCOCCOCCOCCOCCNC(=O)CCCCC3SCC4NC(=O)NC43)ccc21 (stereo not drawn) [5Biot PEG4 SS IA Me 24]
Concentration of functionalised/captured and eluted transcript (Exp #2, 15 mM): 7.6E+10 copies/μl | Total yield functionalisation/capture/elution of the HIV transcripts (Exp #2, 15 mM): 9.303% | % RNA recovered after elimination of the excess of reagent 24 (Exp #2, Cf 15 mM): 32% | Capture rate (Exp #2, Cf 15 mM): 77% | elution rate (Exp #2, Cf 15 mM): 40% | overall yield (Exp #2, Cf 15 mM): 10% | Concentration of functionalised/captured and eluted transcript (Exp #3, 30 mM): 1.4E+11 copies/μl | Total yield functionalisation/capture/elution of the HIV transcripts (Exp #3, 30 mM): 17.14% | % RNA recovered after elimination of the excess of reagent 24 (Exp #3, Cf 30 mM): 34% | Capture rate (Exp #3, Cf 30 mM): 100% | elution rate (Exp #3, Cf 30 mM): 53% | overall yield (Exp #3, Cf 30 mM): 18% | Concentration of functionalised/captured and eluted transcript (Exp #4, 120 mM): 1.0E+11 copies/μl | Total yield functionalisation/capture/elution of the HIV transcripts (Exp #4, 120 mM): 12.49% | % RNA recovered after elimination of the excess of reagent 24 (Exp #4, Cf 120 mM): 31% | Capture rate (Exp #4, Cf 120 mM): 100% | elution rate (Exp #4, Cf 120 mM): 45% | overall yield (Exp #4, Cf 120 mM): 14% | Concentration of functionalised/captured and eluted transcript (Exp #5, 180 mM): 9.8E+10 copies/μl | Total yield functionalisation/capture/elution of the HIV transcripts (Exp #5, 180 mM): 12% | % RNA recovered after elimination of the excess of reagent 24 (Exp #5, Cf 180 mM): 30% | Capture rate (Exp #5, Cf 180 mM): 100% | elution rate (Exp #5, Cf 180 mM): 43% | overall yield (Exp #5, Cf 180 mM): 13%
